# Measured values taken from publication PMC6150173 (Molecules : A Journal of Synthetic Chemistry and Natural …, 2017).
# Assay: general procedure: Fmoc solid-phase peptide synthesis; MBHA resin (0.4 mmol/g) with Fmoc-Rink-amide linker; Oxyma/DIPCDI; cyclization with PyOxim/Oxyma/DIEA
# Conditions: whole synthesis, 220 nm, scale of the general procedure MBHA resin 3.5 g
row,Substance,crude HPLC purity
1,cyclo(KKKKKWKKLQ),>99%
2,cyclo(KKKKKWLLLQ),>99%
3,cyclo(KKKKLWKLLQ),>99%
4,cyclo(KKKKLWLKLQ),>99%
5,cyclo(KKKKLWLLKQ),>99%
6,cyclo(KKKLKWKKLQ),>99%
7,cyclo(KKKLKWKLLQ),>99%
8,cyclo(KKKLKWLKLQ),>99%
9,cyclo(KKKLKWLLKQ),96%
10,cyclo(KKKLLWKKLQ),>99%
11,cyclo(KKKLLWKLKQ),>99%
12,cyclo(KKKLLWLKKQ),>99%
13,cyclo(KKLKKWKKLQ),91%
14,cyclo(KKLKKWKLLQ),>99%
15,cyclo(KKLKKWLKLQ),90%
16,cyclo(KKLKKWLLKQ),>99%
17,cyclo(KKLKLWKKLQ),88%
18,cyclo(KKLKLWKLKQ),>99%
19,cyclo(KKLKLWLKKQ),>99%
20,cyclo(KKLLKWKKLQ),88%
21,cyclo(KKLLKWKLKQ),>99%
22,cyclo(KKLLKWLKKQ),90%

row,Substance,crude HPLC purity
1,cyclo(KKLLLWKKKQ),97%
2,cyclo(KLKKKWKKLQ),93%
3,cyclo(KLKKKWKLLQ),88%
4,cyclo(KLKKKWLKLQ),96%
5,cyclo(KLKKKWLLKQ),>99%
6,cyclo(KLKKLWKKLQ),92%
7,cyclo(KLKKLWKLKQ),84%
8,cyclo(KLKKLWLKKQ),>99%
9,cyclo(KLKLKWKKLQ),>99%
10,cyclo(KLKLKWKLKQ),91%
11,cyclo(KLKLKWLKKQ),>99%
12,cyclo(KLKLLWKKKQ),91%
13,cyclo(KLLKKWKKLQ),83%
14,cyclo(KLLKKWKLKQ),>99%
15,cyclo(KLLKKWLKKQ),87%
16,cyclo(KLLKLWKKKQ),87%
17,cyclo(KLLLKWKKKQ),88%
18,cyclo(KLLLKWKKLQ),93%
19,cyclo(LKKKKWKKLQ),>99%
20,cyclo(LKKKKWKLLQ),>99%
21,cyclo(LKKKKWLKLQ),>99%
22,cyclo(LKKKKWLLKQ),96%

row,Substance,crude HPLC purity
1,cyclo(LKKKLWKKLQ),91%
2,cyclo(LKKKLWKLKQ),89%
3,cyclo(LKKKLWLKKQ),>99%
4,cyclo(LKKLKWKKLQ),>99%
5,cyclo(LKKLKWKLKQ),89%
6,cyclo(LKKLKWLKKQ),81%
7,cyclo(LKKLLWKKKQ),85%
8,cyclo(LKLKKWKKLQ),88%
9,cyclo(LKLKKWKLKQ),97%
10,cyclo(LKLKKWLKKQ),87%
11,cyclo(LKLKLWKKKQ),>99%
12,cyclo(LKLLKWKKKQ),93%
13,cyclo(LKLLKWKKLQ),90%
14,cyclo(LLKKKWKKLQ),>99%
15,cyclo(LLKKKWKLKQ),87%
16,cyclo(LLKKKWLKKQ),90%
17,cyclo(LLKKLWKKKQ),86%
18,cyclo(LLKLKWKKKQ),>99%
19,cyclo(LLKLKWKKLQ),99%
20,cyclo(LLLKKWKKKQ),90%
21,cyclo(LLLKKWKKLQ),93%
22,cyclo(LLLLKWKKLQ),96%
